Source: patent publication US6334944B1, “Process for producing an amino acid-N,N-diacetic acid and its salts” (Showa Denko K.K., priority 1998, dated 2002)

Test system: activated sludge
Assay: Biodegradability test in compact aeration type activated sludger
Conditions: sample diluted to COD 500 ppm, activated sludge seed, 7 days

SMILES: O=C([O-])CCC(C(=O)[O-])N(CC(=O)[O-])CC(=O)[O-].[Fe+3].[NH4+] (stereo not shown) [Example 21, ammonium ferric salt of glutamic acid-N,N-diacetic acid]
- Decomposition Rate (%): 79%
